Experimental data: patent USRE49816E1, “Dipeptides as inhibitors of human immunoproteasomes” (CORNELL UNIVERSITY, priority 2014, dated 2024)

Chains of the proteins cited; added tags and fusions are not shown. Residues count along the entry.
UniProt P9WHT9, 58-291 limits assumed: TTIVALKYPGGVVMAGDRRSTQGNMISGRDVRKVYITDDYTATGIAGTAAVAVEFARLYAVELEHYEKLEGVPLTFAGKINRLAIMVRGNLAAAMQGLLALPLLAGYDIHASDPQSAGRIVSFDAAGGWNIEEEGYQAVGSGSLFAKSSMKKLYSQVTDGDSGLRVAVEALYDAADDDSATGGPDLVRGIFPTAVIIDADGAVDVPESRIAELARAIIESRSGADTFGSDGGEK
UniProt P9WHU1, whole entry partner: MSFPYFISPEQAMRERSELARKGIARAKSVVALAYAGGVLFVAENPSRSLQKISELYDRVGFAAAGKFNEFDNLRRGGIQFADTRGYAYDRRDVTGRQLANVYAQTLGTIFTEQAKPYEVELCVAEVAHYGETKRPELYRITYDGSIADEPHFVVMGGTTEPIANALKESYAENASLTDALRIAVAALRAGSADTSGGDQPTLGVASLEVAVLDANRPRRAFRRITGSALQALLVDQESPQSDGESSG

Biological target: Mtb20S (Mycobacterium tuberculosis, UniProt P9WHT9)
Assay: Dipeptide boronates IC50 vs Mtb20S
Settings: read-out: IC50 Mtb20S

Compound: CC(=O)N[C@@H](Cc1ccccc1)C(=O)NC(Cc1cccc2ccccc12)B(O)O (stereo partly shown)
- IC50: 100 nM
